The values that follow come from PMC13415800 (Pharmaceutics, 2026).

The source's definition of the ratio is not given here.

One data set has as its system ZIKV (MR766, Uganda). The data set is classed as cell-based, Zika virus. Particulars: selectivity index; Vero E6.
The test system of another data set is CHIKV (Guatemala). The experiment in a line: CPE inhibition assay, CHIKV on Vero E6. It is filed as cell-based, chikungunya virus. Particulars: selectivity index.

With `CC(=O)N[C@H]1[C@H](O[C@@H]2c3ccc(c(Cl)c3)Oc3cc4cc(c3O)Oc3ccc(cc3Cl)C[C@H]3NC(=O)[C@H](n5cc(COCCOCCCC(F)(F)C(F)(F)C(F)(F)C(F)(F)C(F)(F)C(F)(F)C(F)(F)C(F)(F)F)nn5)c5ccc(O)c(c5)Oc5cc(O)cc(c5)[C@H](NC3=O)C(=O)N[C@H]4C(=O)N[C@H]3C(=O)N[C@@H]2C(=O)N[C@H](C(=O)O)c2cc(O)cc(O)c2-c2cc3ccc2O)O[C@H](CO)[C@@H](O)[C@@H]1O` [Compound 1], the “ZIKV SI” value in the data set with ZIKV (MR766, Uganda) was determined as 6.13.
Same read-out and setting: to `CC(=O)N[C@H]1[C@H](O[C@@H]2c3ccc(c(Cl)c3)Oc3cc4cc(c3O)Oc3ccc(cc3Cl)C[C@H]3NC(=O)[C@H](n5cc(COCCOCCCC(F)(F)C(F)(F)C(F)(F)C(F)(F)C(F)(F)C(F)(F)F)nn5)c5ccc(O)c(c5)Oc5cc(O)cc(c5)[C@H](NC3=O)C(=O)N[C@H]4C(=O)N[C@H]3C(=O)N[C@@H]2C(=O)N[C@H](C(=O)O)c2cc(O)cc(O)c2-c2cc3ccc2O)O[C@H](CO)[C@@H](O)[C@@H]1O` [Compound 2] belongs 16.59.
For the compound `CC(=O)N[C@H]1[C@H](O[C@@H]2c3ccc(c(Cl)c3)Oc3cc4cc(c3O)Oc3ccc(cc3Cl)C[C@H]3NC(=O)[C@H](n5cc(COCCOCCCC(F)(F)C(F)(F)C(F)(F)C(F)(F)F)nn5)c5ccc(O)c(c5)Oc5cc(O)cc(c5)[C@H](NC3=O)C(=O)N[C@H]4C(=O)N[C@H]3C(=O)N[C@@H]2C(=O)N[C@H](C(=O)O)c2cc(O)cc(O)c2-c2cc3ccc2O)O[C@H](CO)[C@@H](O)[C@@H]1O` [Compound 3], the “CHIKV SI” value in the data set with CHIKV (Guatemala) is listed as 5.52.
Consider `CC(=O)N[C@H]1[C@H](O[C@@H]2c3ccc(c(Cl)c3)Oc3cc4cc(c3O)Oc3ccc(cc3Cl)C[C@H]3NC(=O)[C@H](NC(=O)CCC(F)(F)C(F)(F)C(F)(F)C(F)(F)C(F)(F)C(F)(F)C(F)(F)C(F)(F)F)c5ccc(O)c(c5)Oc5cc(O)cc(c5)[C@H](NC3=O)C(=O)N[C@H]4C(=O)N[C@H]3C(=O)N[C@@H]2C(=O)N[C@H](C(=O)O)c2cc(O)cc(O)c2-c2cc3ccc2O)O[C@H](CO)[C@@H](O)[C@@H]1O` [Compound 6], for which, in the data set with ZIKV (MR766, Uganda), the “ZIKV SI” value was 28.44. Also, in the data set on CHIKV (Guatemala), the “CHIKV SI” value is recorded as 2.86.
For `COC(=O)C1NC(=O)C2NC(=O)C(NC(=O)C3NC(=O)C4NC(=O)C(NC(=O)C(NC(=O)CCC(F)(F)C(F)(F)C(F)(F)C(F)(F)C(F)(F)C(F)(F)C(F)(F)C(F)(F)F)c5ccc(O)c(c5)Oc5cc4cc(O)c5C)C(O)c4ccc(cc4)Oc4cc3cc(c4O)Oc3ccc(cc3)C2O)c2ccc(O)c(c2)-c2c(O)cc(O)cc21` (stereo not shown) [Compound 8], in the data set on ZIKV (MR766, Uganda), the “ZIKV SI” value is listed as 1.48. For the same compound, the “CHIKV SI” value with CHIKV (Guatemala) was 4.46.
